Pooled drug test results. Numbers come from NIAID ChemDB, via PubChem.

Common to all: enzyme or target tests; species: HIV-1; protein: Reverse transcriptase

ICn is the concentration giving n% inhibition. Blank or dashed fields: not listed here. Lines come from different laboratories, so protocols vary.

smiles,strain or isolate,method,changes,measure,result
CCN1c2ncc(CCc3ccccc3)cc2C(=O)N(C)c2ccc(-c3ccc[nH]3)nc21,WT,nucleotide incorporation / radiometric,,IC50,<1 µM
N#Cc1c(N)cccc1S(=O)(=O)c1ccc(Cl)cc1,,,,IC50,0.4 µM
COc1ccc(OC)c2c(=O)c(O)c[nH]c12,,RT activity / nucleotide incorporation / radiometric,,IC50,4.03 µM
COC(=O)C1C(=O)N(O)C(=O)c2ccccc21,,RNase H,,IC50,0.061 µM
COc1ccc2c(c1)N(C(=O)OC(C)C)[C@@H](CSC)C(=S)N2,,scintillation proximity / radiometric,RT-Y181I G190E,IC50,>29 µM
CSC1SC[C@H]2C(=O)N(C)[C@@H](C(C)C)C(=O)OC[C@@H](NC(=O)c3cnc4ccccc4n3)C(=O)N[C@H](C)C(=O)N(C)[C@@H]1C(=O)N(C)[C@@H](C(C)C)C(=O)OC[C@@H](NC(=O)c1cnc3ccccc3n1)C(=O)N[C@H](C)C(=O)N2C,IIIB,,,IC50,700 µM
CC(C)=CCN1Cc2cccc3[nH]c(=S)n(c23)C[C@@H]1C,,,RT-Q161L H208Y,Ki,0.46 µM
N#Cc1c(N)cccc1S(=O)(=O)c1cc(Cl)cc(Cl)c1,,,,IC50,0.3 µM
Nc1ncnc2c1ncn2[C@@H]1CO[C@H](COP(=O)(O)OP(=O)(O)OP(=O)(O)O)C1,,,,Ki,0.016 µM
Cc1cccc2c1nc(-c1ccc(C#N)cc1)n2Cc1c(F)cccc1F,,,,IC50,>10 µM
O=c1c(O[C@@H]2OC[C@H](O)[C@H](O)[C@H]2O)c(-c2ccc(O)c(O)c2)oc2cc(O)cc(O)c12,IIIB,nucleotide incorporation,,IC50,>1000 µM
N#Cc1c(N)cccc1S(=O)(=O)c1ccc(Br)cc1,,,,IC50,0.2 µM
Cc1cc(O)c2c(c1Br)C(=O)C=CC2=O,,RT activity,,IC50,48 µg/mL
O=C(O)[C@H]1O[C@@H](Oc2cc3oc(-c4ccccc4)cc(=O)c3c(O)c2O)[C@H](O)[C@@H](O)[C@@H]1O,LAV,,,IC50,22 µM
O=c1c2ccccc2n2nnc3ccc(NCCCN4CCN(CCCNc5ccc6nnn7c8ccccc8c(=O)c5c67)CC4)c1c32,,nucleotide incorporation,,IC50,>100 µM
Cc1cc(C)cc(S(=O)(=O)c2c(C(=O)NNCCO)[nH]c3ccc(Cl)cc23)c1,,nucleotide incorporation / radiometric,RT-Y188L,IC50,>40 µM
CCN1c2ncc(COc3cccnc3)cc2C(=O)N(C)c2ccc(Cl)nc21,,nucleotide incorporation / radiometric,RT-Y181C,IC50,<1 µM
Nc1ncnc2c1ncn2[C@@H]1O[C@H](COP(=O)(O)OP(=O)(O)OP(=O)(O)O)C[C@@H]1F,,nucleotide incorporation,RT-Q151M,IC50,115 µM
CC(C)=CCOc1cc(NC(=S)c2ccoc2C)ccc1Cl,,,,IC50,0.02 µg/mL
O=C(/C=C/c1ccc(O)c2c1[C@H](C(=O)O)[C@@H](c1ccc(O)c(O)c1)O2)O[C@H](Cc1ccc(O)c(O)c1)C(=O)O,IIIB,nucleotide incorporation,,IC50,0.8 µM
Cc1cc(O)c2c(c1)C(=O)C(c1c(C)cc3c(c1O)C(=O)C=CC3=O)=CC2=O,,RT activity,,IC50,>100 µg/mL
CCN1c2ncc(CCc3cnc4ccccc4c3)cc2C(=O)N(C)c2ccc(F)nc21,,nucleotide incorporation / radiometric,RT-Y181C,IC50,<1 µM
Cc1ccc(S(=O)(=O)c2cccc(N)c2C#N)cc1,,,,IC50,0.2 µM
O=C(OC[C@H]1O[C@@H](OC(=O)c2cc(O)c(O)c(O)c2)[C@H](O)[C@@H](OC(=O)c2cc(O)c(O)c(O)c2)[C@@H]1OC(=O)c1cc(O)c(O)c(O)c1)c1cc(O)c(O)c(O)c1,IIIB,nucleotide incorporation,,IC50,80 µM
C/C=C/c1ccc2c(c1)[C@H](C)[C@@H](c1ccc(O)cc1)O2,,RT activity / radiometric,,IC50,323.2 µM
CCN1c2ncc(COc3ccc(O)cc3)cc2C(=O)N(C)c2ccc(Cl)nc21,WT,nucleotide incorporation / radiometric,,IC50,<1 µM
O=c1c(O[C@@H]2O[C@H](CO)[C@@H](O)[C@H](O)[C@H]2O)c(-c2ccc(O)c(O)c2)oc2cc(O)cc(O)c12,IIIB,nucleotide incorporation,,IC50,50 µM
Cc1cccc2c1nc(C=O)n2Cc1c(F)cccc1F,,,,IC50,>10 µM
Cc1cc(O)c2c(c1)C(=O)C=CC2=O,,RT activity,,IC50,6 µg/mL
Cc1cccc2c1nc(-c1c(F)cccc1F)n2S(=O)(=O)c1ccccc1,,,,IC50,<10 µM
Cc1cn([C@@H]2C[C@H](OP(=O)(O)OC[C@H]3O[C@H](n4cc(C)c(=O)[nH]c4=O)C[C@@H]3O)[C@@H](CO)O2)c(=O)[nH]c1=O,,,,IC50,>100 µM
CC(=O)c1ccc(C)cc1NC(C(N)=O)c1c(Cl)cccc1Cl,IIIB,nucleotide incorporation,,IC50,0.3 µM
CCN1c2ncc(CCOc3cc[n+]([O-])cc3)cc2C(=O)N(C)c2ccc(Cl)nc21,WT,nucleotide incorporation / radiometric,,IC50,<1 µM
Cc1cccc2c1nc(CO)n2Cc1c(F)cccc1F,,,,IC50,>10 µM
CC(C)=CCC[C@@H](C)C1CC[C@]2(C)CC=C(C=O)C1(C=O)[C@@H]2O,,nucleotide incorporation / radiometric,,IC50,>100 µM
Fc1cccc(F)c1Cn1c(-c2c(F)cccc2F)nc2c(Br)cccc21,,,,IC50,<10 µM
Cc1cn([C@H]2C=C[C@@H](COP(=O)(O)OP(=O)(O)OP(=O)(O)O)O2)c(=O)[nH]c1=O,,radiometric,,IC50,10 µM
COc1cc(C/C=C/c2cc(O)c(O)c(O)c2)cc(OC)c1,,,,IC50,>100 µM
CCOc1cc(C)c(Cl)c2c1C(=O)C=CC2=O,,RT activity,,IC50,22 µg/mL
CC(C)=CCOc1cc(NC(=S)c2ccoc2C)ccc1Cl,,,RT-P236L,IC50,1.1 µM
Cc1nc2ccccc2n1Cc1c(F)cccc1F,,,,IC50,>10 µM
Cc1cc(O)c2c(c1)C(O)C=CC2=O,,RT activity,,IC50,>100 µg/mL
CCN1c2ncc(CNc3cccc([N+](=O)[O-])c3)cc2C(=O)N(C)c2ccc(Cl)nc21,WT,nucleotide incorporation / radiometric,,IC50,<1 µM
O=[N+]([O-])c1ccc2c(c1)nc(-c1c(F)cccc1F)n2Cc1c(F)cccc1F,,,,IC50,>10 µM